According to ChEMBL document CHEMBL1153554, “Mechanisms by which the G333D mutation in human immunodeficiency virus type 1 Reverse transcriptase facilitates dual resistance to zidovudine and lamivudine” (Antimicrob Agents Chemother, 2008):

Target: Human immunodeficiency virus type 1 reverse transcriptase (Human immunodeficiency virus 1) (UniProt Q72547)
Experiment: Ratio of Kpol to Kd for wild type HIV1 LAI reverse transcriptase
Outline: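 Pre-steady-state rapid quench: 400 nM active-site RT and 40 nM ³²P-P20/T57 DNA T/P were preincubated in 50 mM Tris-HCl pH 7.5, 50 mM KCl, then mixed with nucleotide in the same buffer containing 20 mM MgCl₂. Quenched with 0.3 M EDTA from 10 ms to 30 min, run on urea-PAGE. kobs came from single-exponential fits; kpol and Kd came from a hyperbolic fit versus nucleotide concentration.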

`Cc1cn([C@H]2C[C@H](O)[C@@H](COP(=O)(O)OP(=O)(O)OP(=O)(O)O)O2)c(=O)[nH]c1=O` [DEOXYTHYMIDINE_TRIPHOSPHATE] showed a Ratio of 3.72.
